Results from paper PMC10057528, “Trypanosoma cruzi Sirtuin 2 as a Relevant Druggable Target: New Inhibitors Developed by Computer-Aided Drug Design” (Pharmaceuticals, 2023).

Amino acid sequences for entries named in this document (tags omitted). Residues count along the entry.
UniProt Q4DP02, 1-359: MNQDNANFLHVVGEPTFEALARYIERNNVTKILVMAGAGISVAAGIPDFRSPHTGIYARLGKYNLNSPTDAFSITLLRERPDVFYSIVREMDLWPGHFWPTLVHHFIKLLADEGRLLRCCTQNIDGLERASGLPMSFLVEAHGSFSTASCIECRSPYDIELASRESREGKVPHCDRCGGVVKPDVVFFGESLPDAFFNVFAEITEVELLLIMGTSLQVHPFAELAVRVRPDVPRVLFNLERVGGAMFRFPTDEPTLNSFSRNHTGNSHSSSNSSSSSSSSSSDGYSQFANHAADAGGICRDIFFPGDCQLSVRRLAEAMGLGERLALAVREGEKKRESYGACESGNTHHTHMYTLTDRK

What was measured:
LLCMK2 cells = assay: Mammalian cell viability assay (MTT); settings: read-out: EC50 Cell Toxicity, 72 h, ND* = values measured but did not converge IC50 significantly
TcSir2 = TcSir2 (Trypanosoma cruzi, UniProt Q4DP02); assay: Recombinant TcSir2 activity assay (fluorescent peptide deacetylation); settings: read-out: IC50 (TcSir2); recombinant TcSir2 0.1 μM, 10 μM peptide, 25 μM NAD+, 37 °C; ND = values measured but did not converge IC50 significantly
T. cruzi amastigote = assay: In vitro trypanocidal activity with amastigote forms (Tulahuen LacZ, CPRG); format: cell-based, Trypanosoma cruzi; settings: read-out: IC50 T. cruzi ama; intracellular amastigotes in LLCMK2 cells, 72 h; ND* = values measured but did not converge IC50 significantly
Method: In 96-well plates, cells from the LLCMK2 lineage were seeded at a concentration of 5 × 10^4 cells/mL (80 μL). The trypomastigote forms of the Tulahuen LacZ strain were added at a concentration of 5 × 10^5 cells/mL (in a total of 20 μL) and, subsequently incubated for 24 h at 37 °C with a 5% CO2 atmosphere. Next, the trypomastigote forms present in the supernatant were washed, leaving only the amastigote forms. Serial dilutions of the compounds were added (1.95 to 200 µM) and the plate was incubated for 72 h at 37 °C with a 5% CO2 atmosphere. At the end of this period, the CPRG substrate (chlorophenol red β-D-galactopyranoside, 400 μM in 0.3% Triton X-100, pH 7.4) was added and incubated for additional 6 h. After incubation, the sample’s absorbance values were measured using a spectrophotometer at 570 nm. Benznidazole and dimethyl sulfoxide (DMSO) in the same concentrations as tested compounds were used as the positive and negative controls, respectively.

CCCN(C(=O)COC(=O)CCOc1ccccc1C)c1c(N)n(Cc2ccccc2)c(=O)[nH]c1=O
EC50 (LLCMK2 cells): 227 µM
IC50 (TcSir2): 332 µM
IC50 (T. cruzi amastigote): 169 µM
